Results on 1 compound are retold here after paper PMC3445454, “Broad and Cross-Clade CD4^+ T-Cell Responses Elicited by a DNA Vaccine Encoding Highly Conserved and Promiscuous HIV-1 M-Group Consensus Peptides” (PLoS ONE, 2012).

Chains of the proteins cited; added tags and fusions are not shown. Lines headed by an entry give the natural chain unless they say otherwise; changes in a name come on top. Residues count along the entry.
UniProt P01903, 26-254 limits assumed: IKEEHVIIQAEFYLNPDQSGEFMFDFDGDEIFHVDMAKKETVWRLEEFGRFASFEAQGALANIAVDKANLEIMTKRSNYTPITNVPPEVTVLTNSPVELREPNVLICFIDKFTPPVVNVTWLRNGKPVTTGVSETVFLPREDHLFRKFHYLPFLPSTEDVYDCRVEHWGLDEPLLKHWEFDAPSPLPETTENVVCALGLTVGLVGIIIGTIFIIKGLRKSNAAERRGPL

Holding throughout (test): biochemical
Assay [1] concerns the target HLA-DQ DQA1*05:01/DQB1*02:01 (Homo sapiens, UniProt P01909+P01920, A45G/A70V/D89A/E106A/E77G/E98D/H199R/L107V/N214S/P84L/P87L/T103K/T109R/T172A/T60S/V78E/V99I/Y58L/Y62S/Y69I/Y79F).
The target in assay [2] is HLA-DQ DQA1*01:02/DQB1*05:02 (Homo sapiens, UniProt P01909+P01920, A157S/A45G/A70V/C70R/D89S/E106S/E118A/E183D/E77G/F83G/G63E/H151Q/H199R/H252R/H253Q/I129T/I235V/I88M/INS77G/K197Q/L107V/L117V/L119Y/L178F/L71W/L74F/L85Q/L91A/L98M/M46L/N214S/P87R/Q116E/Q158H/Q256R/Q76K/R102G/R240Q/R75S/R78G/S102Y/S185I/S41F/S97I/T103A/T109R/T121G/T122I/T172A/T86R/V148I/V229M/V68A/V73E/Y34C/Y58G/Y62H).

Assay [3] addresses HLA-DQ DQA1*03:01/DQB1*03:01 (Homo sapiens, UniProt P01909+P01920, A209T/C70Q/DUP78-78/E183D/F237L/G63E/I129T/K197E/L178F/L74F/L98V/Q57E/Q76R/S185I/S97I/T49S/V73L). Type of assay: binding.
The target in assay [4] is HLA-DQ DQA1*02:01/DQB1*02:02 (Homo sapiens, UniProt P01909+P01920, A45G/A70V/C70K/D167G/D89A/E106A/E183D/E77G/E98D/F237L/F77L/G63E/H199R/I129T/K197E/L107V/L178F/L74F/N214S/P84L/P87L/Q57E/Q76R/R75H/S185I/S97I/T103K/T109R/T172A/T60S/V73L/V78E/V99I/Y48F/Y58L/Y62S/Y69I/Y79F). In kind it is binding. Particulars: read-out: Binding capacity/IC50 (nM) DQA1*02:01 DQB1*02:02.
In assay [5] the target is HLA-DQ DQA1*04:01/DQB1*04:02 (Homo sapiens, UniProt P01909+P01920, A45G/E106S/E183D/E77G/E98D/H199R/I129T/K197E/L107V/L178F/L91T/P87R/P88L/R102E/S185I/S97I/T103D/T217I/V99I/Y41F/Y58G).
For assay [6], the target named is HLA-DQ DQA1*01:04/DQB1*05:03 (Homo sapiens, UniProt P01909+P01920, A157S/A221T/A45G/A70V/C70R/D25G/E106S/E118A/E183D/E77G/F83G/G63E/H151Q/H199R/H252R/H253Q/I129T/I235V/I88M/INS77G/K197Q/L107V/L117V/L119Y/L178F/L71W/L74F/L85Q/L91A/L98M/M46L/N214S/P87R/Q116E/Q256R/Q57E/Q76K/R102G/R240Q/R75S/R78G/S102Y/S185I/S41F/S97I/T103A/T109R/T121G/T122I/T172A/T86R/V148I/V68A/V73E/Y34C/Y58G/Y62H).

Assay [7] concerns the target HLA-DQ DQA1*03:01/DQB1*03:02 (Homo sapiens, UniProt P01909+P01920, A209T/A45G/C70Q/D89A/DUP78-78/E183D/E77G/F237L/G63E/H199R/I129T/K197E/L178F/L74F/L98V/Q57E/Q76R/S185I/S97I/T217I/T49S/V73L/Y58L). Type of assay: binding. Conditions: read-out: Binding capacity/IC50 (nM) DQA1*03:01 DQB1*03:02.
In assay [8] the target is HLA-DQ DQA1*01:03/DQB1*06:03 (Homo sapiens, UniProt P01909+P01920, A157G/A45G/C70R/E118A/E183D/E77G/F83G/G63E/H199R/H252R/H253Q/I129T/I235V/I88M/INS77G/K197Q/L117V/L119F/L178F/L71W/L74F/L85Q/L91A/L98M/N214S/P87R/Q116E/Q76K/R102G/R240Q/R64K/R75S/R78G/S102Y/S152A/S185I/S41F/S97I/T121G/T122I/T172A/T86R/V68A/V73E/Y34C/Y48F/Y58L/Y62H).
Assay [9] concerns the target HLA-DQ DQA1*01:01/DQB1*05:01 (Homo sapiens, UniProt P01909+P01920, A157S/A45G/A70V/C70R/D89V/E106S/E118A/E183D/E77G/F83G/G63E/H151Q/H199R/H252R/H253Q/I129T/I235V/I88M/INS77G/K197Q/L107V/L117V/L119Y/L178F/L71W/L74F/L85Q/L91A/L98M/M46L/N214S/P87R/Q116E/Q256R/Q57E/Q76K/R102G/R240Q/R75S/R78G/S102Y/S185I/S41F/S97I/T103A/T109R/T121G/T122I/T172A/T86R/V148I/V68A/V73E/Y34C/Y58G/Y62H).

In another assay the target is HLA-DR DRB1*03:01 (Homo sapiens, UniProt P01903+P01911, A100K/A102G/A103R/A169T/F55Y/I96L/K41T/L162R/M171V/P40S/Q125H/Q178H/Q39Y/R42S/S66N/T106N/T262R/W38E/Y61H). In kind it is binding. Particulars: read-out: Binding capacity/IC50 (nM) DRB1*03:01.
Assay [10] has as its target HLA-DQ DQA1*01:02/DQB1*06:02 (Homo sapiens, UniProt P01909+P01920, A157G/A45G/C70R/E118A/E183D/E77G/F83G/G63E/H151Q/H199R/H252R/H253Q/I129T/I235V/I88M/INS77G/K197Q/L117V/L119F/L178F/L71W/L74F/L85Q/L91A/L98M/N214S/P87R/Q116E/Q76K/R102G/R240Q/R75S/R78G/S102Y/S185I/S41F/S97I/T121G/T122I/T172A/T86R/V229M/V68A/V73E/Y34C/Y41F/Y58L). Type of assay: binding. Conditions: read-out: Binding capacity/IC50 (nM) DQA1*01:02 DQB1*06:02.

Take `CC[C@H](C)[C@H](NC(=O)[C@H](C)NC(=O)[C@H](CCC(N)=O)NC(=O)[C@H](Cc1c[nH]cn1)NC(=O)[C@@H](NC(=O)[C@H](CCSC)NC(=O)[C@H](CCC(N)=O)NC(=O)CNC(=O)[C@H](CCC(N)=O)NC(=O)[C@H](CC(C)C)NC(=O)[C@H](CC(N)=O)NC(=O)[C@H](CCC(N)=O)NC(=O)[C@@H](NC(=O)[C@@H](NC(=O)[C@@H]1CCCN1C(=O)[C@H](Cc1ccc(O)cc1)NC(=O)[C@@H](N)CC(N)=O)[C@@H](C)CC)C(C)C)C(C)C)C(=O)N[C@@H](CO)C(=O)N1CCC[C@H]1C(=O)N[C@@H](CCCNC(=N)N)C(N)=O` [p17(131-132)/p24(1-18)]: the IC50 in assay [1] was found to be 5.14 µM; in assay [2], 0.265 µM; in assay [3], 0.228 µM; in assay [4], 26400 nM; in [5], 6.1 µM; in [6], 4 µM. The IC50 was found to be 9340 nM in [7]; 0.077 µM in assay [8]; 0.599 µM in [9]; 3350 nM at HLA-DR DRB1*03:01; 852 nM in assay [10].
